Measurements reported in PubChem BioAssay AID1259414 (Drosophila RNAi Screening Center, 2018).
In all, the deposit lists about 24,000 reagents; shown is a random part of those with a known target gene and a result. Over the whole deposit, about 1,210 (5%) were called active. 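Inactive calls also include excluded dsRNAs with several or no targets, genes unexpressed in JW18, and well A1, regardless of score.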 A number with no mark means an inactive call. Reagent sequences are not shown.

Purpose: 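Genome-wide screen for host control of endosymbiont load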 (primary screen)
Cells: Drosophila JW18 cells infected with Wolbachia
Knock-down reagent: long dsRNA against Drosophila genes, 0.25 µg dsRNA per well of a 384-well plate
Duration: 5 days
Conditions: cells persistently infected with Wolbachia before knock-down; no added drug
Detection: 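Imaged fluorescence in situ signal for Wolbachia 23S rRNA per DAPI-counted host cell, given as a robust z-score within each plate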
Direction: Wolbachia per cell robust z: higher = more Wolbachia per host cell than the plate typical
Active means: 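Hit when robust z is 1.5 or more, or -1.5 or less, in at least two of three replicates; excludes dsRNAs with several or no targets, genes not expressed in JW18 and well A1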

target,DRSC id,"Wolbachia per cell robust z, rep 1","Wolbachia per cell robust z, rep 2","Wolbachia per cell robust z, rep 3"
CG17104,DRSC02573,-0.461,0.21,0.313
CG17104,DRSC29692,0.331,0.509,1.82
CG9641,DRSC00721,-0.225,-1.58,-1.1
CG9641,DRSC27080,0.572,-0.0428,0.234
CG5756,DRSC06950,0.000411,-0.156,-0.22
CG5756,DRSC28245,-0.0278,-0.164,-0.232
RpL7-like,DRSC02836,0.142,0.876,0.779
RpL7-like,DRSC28314,0.718,-0.392,-0.344
RpL7-like,DRSC39019,0.918,0.179,0.181
CG13003,DRSC19522,-3.33,0.128,0.0511
CG4393,DRSC15573,-0.201,0.114,-4.43
Cyp6t3,DRSC07388,0.394,1.23,1.2
MED27,DRSC12205,0.295,0.4,-0.987
ft,DRSC00819,1.28,-0.609,-0.167
ft,DRSC40743,-0.249 (active),-1.53,-1.67
Kat60,DRSC12378,1.62,0.536,1.28
CG11381,DRSC17780,-1.78,1.07,0.122
CG11381,DRSC25125,-1.31,0.426,-1.21

Continued, starting with the last 2 of the part before.
target,DRSC id,"Wolbachia per cell robust z, rep 1","Wolbachia per cell robust z, rep 2","Wolbachia per cell robust z, rep 3"
CG11381,DRSC17780,-1.78,1.07,0.122
CG11381,DRSC25125,-1.31,0.426,-1.21
CG9143,DRSC07338,0.464,-0.582,0.225
ApepP,DRSC01866,0.107,0.0447,0.601
Dbp45A,DRSC07395,1.73,-0.000148,0.621
CG15756,DRSC19721,-0.231,-1.34,0.0851
CG15756,DRSC24288,0.308,2.09,-0.447
Dis3l2,DRSC08496,-0.726,-0.0381,-0.84
Pdh,DRSC11249,0.74,0.51,-4.22
Pdh,DRSC26995,0.383,-0.355,-0.418
CG4733,DRSC15634,-0.468,0.854,-0.952
Muc68E,DRSC09146,0.374,0.69,0.0192
Muc68E,DRSC26478,-0.853,0.0749,-2.18
